Literature values, collected in publication PMC7066149.

Biological target: HIV-1 capsid protein CA (Human immunodeficiency virus 1) (UniProt O93182)

Cyclophilin A (from UniProt P62937)
pKd: 5.00

pKd: −log10 of the molar value.
